Values of other authors as cited in publication PMC5608908, “Novel scaffolds for inhibition of Cruzipain identified from high-throughput screening of anti-kinetoplastid chemical boxes” (Scientific Reports, 2017).

Parameters: method as in PMID 25740547
Conditions: relative frequency with which a compound has scored more than 50% inhibition in an HTS assay; cited from earlier work

| SMILES | inhibition frequency index |
| --- | --- |
| N#CN1CC[C@@H](NC(=O)Nc2ccccc2Oc2ccccc2)C1 [TCMDC-143238] | 5.10 |
| COc1ccc(OC)c(S(=O)(=O)N(Cc2c(F)cccc2F)C2CCN(C#N)C2)c1 (centres unmarked) [TCMDC-143370] | 2.41 |
